Assays:
[1] = biological target: FleQ (Pseudomonas syringae pv. tomato DC3000) (UniProt Q884Y2); experiment: EMSA; conditions: STAD: 25 mM Tris-acetate pH 8.0, 8 mM Mg-acetate, 10 mM KCl, 3.5% PEG-8000, 1 mM DTT, 10 ug/ml poly(dI-dC), 200 ug/ml BSA, 20 nM probe (Results: 1 nM), 30 min at 4 C, recombinant protein, residues 1-491, probe letters rebuilt from the primers and the genome
[2] = biological target: FleQ (Pseudomonas syringae pv. tomato DC3000) (UniProt Q884Y2); experiment: competition with a labelled probe; conditions: cold wssA1-2 at 1x and 5x; STAD: 25 mM Tris-acetate pH 8.0, 8 mM Mg-acetate, 10 mM KCl, 3.5% PEG-8000, 1 mM DTT, 10 ug/ml poly(dI-dC), 200 ug/ml BSA; 20 nM probe (Results: 1 nM); 30 min at 4 C; recombinant protein; residues 1-491; probe letters rebuilt from the primers and the genome
[3] = biological target: FleQ (Pseudomonas syringae pv. tomato DC3000) (UniProt Q884Y2); experiment: DNase I and DMS footprinting; conditions: STAD: 25 mM Tris-acetate pH 8.0, 8 mM Mg-acetate, 10 mM KCl, 3.5% PEG-8000, 1 mM DTT, 10 ug/ml poly(dI-dC), 200 ug/ml BSA, 20 nM probe (Results: 1 nM), 30 min at 4 C, recombinant protein, residues 1-491, probe letters rebuilt from the primers and the genome
[4] = biological target: FleQ (Pseudomonas syringae pv. tomato DC3000) (UniProt Q884Y2); experiment: DNase I footprinting; conditions: 1 uM FleQ; STAD: 25 mM Tris-acetate pH 8.0, 8 mM Mg-acetate, 10 mM KCl, 3.5% PEG-8000, 1 mM DTT, 10 ug/ml poly(dI-dC), 200 ug/ml BSA; 20 nM probe (Results: 1 nM); 30 min at 4 C; recombinant protein; residues 1-491; probe letters rebuilt from the primers and the genome
[5] = biological target: FleQ (Pseudomonas syringae pv. tomato DC3000) (UniProt Q884Y2); experiment: DMS footprinting; conditions: no protection, hyperreactive G -88 and -89 bottom strand; STAD: 25 mM Tris-acetate pH 8.0, 8 mM Mg-acetate, 10 mM KCl, 3.5% PEG-8000, 1 mM DTT, 10 ug/ml poly(dI-dC), 200 ug/ml BSA; 20 nM probe (Results: 1 nM); 30 min at 4 C; recombinant protein; residues 1-491; probe letters rebuilt from the primers and the genome

Measured: binding result

CGTCAGCACGACTCATTCTGTACGACCTCAATTGGGGCCACCAGGCACAACCCCAGTGGAAAAGCATTAATACTAATGTGTAATGTCATTGTGACAGTGTCAATAAACCGATATATGGCGTCCACAATTTACCGATGAGCGGTAAATTACTCGTTTTTCGACATTTTATTGGCGCTACAAAATTGTAGATCTGGAGACAATCGGGGGCAAACGGGGCTGATTCGAGGGTTTTACGCACTTGCGGCTATATATCCTATGGATCGGATATATAGCCGCTCAAGGGGAGGATCGAATTAAATCAGTGGCTGG (double strand) [wssA1]
binds: [1]; 1 uM FleQ, label: 5'-32P

CTGTGCGGACATCTGATTGAACAGCGAGAACGCCTGCTCAAGCCCCTGACGACTTTCCAGCTCCGGGGAGTACCGGGCCTGAGCAGATTGGGCGGACGTCAGTTGGGCGGCCTGGGACATAGTTCATCTCTCTCGTGGCGAACCGTCAGTAAACGGTGTGTTAAGAGAGACTTAGCAATCCTCGTGCCGAAAAAAAACCCTTGAAAATTCAAGGGCTTGATTTTTGGCGTTTGAAACAGGCGTCAATCCTCCGCCTGTTCATCACCCTCACGACGGCTCATACCGTACTTGCGCATCTTCTCGACCAGGGTGGT (double strand) [fleS1]
binds: [1]; 1 uM FleQ, label: 5'-32P

TGGTTGCTCGATAGACGGCTGAGAGGTCGCGCGTTGCAGTGCAACAGACGGGGTGCTGGAAACGGAAGATTCCTGATAATCCAGGCTGTTGTCCGTCTCCAGATAACCGTCCGAGCTCGCGCCGAAACGTTGAAACAGATTGGCCACATCGTCAGCACGACTCATTCTGTACGACCTCAATTGGGGCCACCAGGCACAACCCCAGTGGAAAAGCATTAATACTAATGTGTAATGTCATTGTGACAGTGTCAATAAACCGATATATGGCGTCCACAATTTACCGATGAGCGGTAAATTACTCGTTTTTCGACATTTTATTGGCGCTACAAAATTGTAGATCTGGAGACAATCGGGGGCAAACGGGGCTGATTCGAGGGTTTTACGCACTTGCGGCTATATATCCTATGGATCGGATATATAGCCGCTCAAGGGGAGGATCGAATTAAATCAGTGGCTGG (double strand) [wssA1-2]
binds: [2] | [3]; ATP | [3]; GTP | [3]; c-di-AMP | [4] | [5] | [1]; 1 uM FleQ | [1]; 0.5 mM ATP | [1]; 0.5 mM GTP | [1]; 0.5 mM c-di-AMP

Source: paper PMC6478803
